In series [1] the test system is T1, AirR (Staphylococcus aureus NCTC8325).
T1 sequence (looked up): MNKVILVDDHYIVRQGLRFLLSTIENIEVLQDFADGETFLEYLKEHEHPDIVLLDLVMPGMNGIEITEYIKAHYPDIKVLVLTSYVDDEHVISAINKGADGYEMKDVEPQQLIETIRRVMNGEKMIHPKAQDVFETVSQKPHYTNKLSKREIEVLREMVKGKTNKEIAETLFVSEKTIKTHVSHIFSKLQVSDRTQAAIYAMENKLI
As to the kind of experiment: EMSA. The following applies: AirR 0.3-1.2 uM, probe 2 nM, recombinant protein, residues 1-207, label: digoxigenin, probe letters rebuilt from the primers and the genome.

For series [2], the system named is AirR-P (phosphorylated AirR) (Staphylococcus aureus NCTC8325). Briefly: EMSA. As to conditions: phosphorylated by acetyl phosphate or AirS, no obvious difference from unphosphorylated AirR; recombinant protein; residues 1-207; label: digoxigenin; probe letters rebuilt from the primers and the genome.

For part of these data: Protein sequences can lack the tags named with them. For part of these data: The exact form of at least one protein or probe is not confirmed.

Regarding “GTCATTTCGTTTTCCTCCAATGATATATCAGGGTTTGCTACCTTAATATAAATTAATATTGATTTAGTCCTATTGTTAATTGATTTATTCGCATCTTTGAATCTTAATAGTATCACATTTTAATGCTATTTTGCATTTTAAAAACGAGGACTTATGTGTCTGTATCTATGTTGATTCATTTATAATCAGAACAATATTCCCTTCTATTTTATTCCTAATTCAAATTGAAATCTATAGCTGATATCACTGTGATATTCTAGCTAATTTTTAAAAAGTCATGTAAAATTGATATAAACATTAGTGAGTATAAAAGGAGTTTG (double strand) [ddl promoter (p-ddl)]”, the binding result in series [1] is “binds”.

For “TTTCCATTATTTACCTCCCTTAAAAATTTTCATTAAAATTGGTATTATATATATAGTATTTACATATTACATATCGTTTAAACAATTAATTACTTTTAAACCGCATTATTTTCGCCTTTTTATTTATATGAAATTAAAAATAATTATACTCTAAAGTAGTAATAGTTTGTGAAATGAGTATCAATCTTAATATTTTCTTTATTTAAAAAAATGATTGTCTAGTTTGTATCTCTCTGAAGATTTGGCAATAAATAAAAGCCGATAACCGTATAATGATTATCGACTTAAAGTTTATGTGGCATTTTTTACTTTTGTAATTTCAGGTGAGTTAGATGA (double strand) [cap promoter (p-cap5A)]”, the binding result in series [1] (competed by 50x unlabeled probe) and in series [2] was “binds” throughout.

The values are drawn from publication PMC4029521.
